A mixed list of measured activities; the numbers were collected in NIAID ChemDB.

All rows: growth or infection tests; agent: HIV-1; read by: p24; measure: EC50

ECn is the concentration giving n% inhibition of infection, replication or growth. Rows are shuffled and stem from different studies. An empty or dashed field is not shown. Two numbers with a dash give a range or band.

compound | cells | strain or isolate | changes | value
CC(C)CN(C[C@@H](O)[C@H](Cc1ccccc1)NC(=O)[C@@H](NC(=O)CNCc1cccc(F)c1)C(C)(C)C)S(=O)(=O)c1cccc(N)c1 | PBMC | NL4-3 |  | <0.0065 µM
Cc1cn([C@H]2C[C@H](N=[N+]=[N-])[C@@H](CO)O2)c(=O)[nH]c1=O | C8166 | IIIB |  | 0.1 µg/mL
Nc1ccn([C@@H]2CO[C@H](CO)S2)c(=O)n1 | C8166 | RF | RT-K65R | 7 µM
c1cc(CN2CCCNCCNCCCNCC2)ccc1CN1CCCNCCNCCCNCC1 | U87 (CD4+ CCR5+) + U87 | HE R5X4 |  | >0.1 µM
CC(C)(C)NC(=O)[C@@H]1CN(Cc2cnc3occc3c2)CCN1C[C@@H](O)C[C@@H](Cc1ccccc1)C(=O)N[C@H]1c2ccccc2C[C@H]1O | MT-4 |  |  | <0.025 µM
Cc1cn([C@H]2C[C@H](N=[N+]=[N-])[C@@H](COC(=O)CN3CCN(c4ccccc4)CC3)O2)c(=O)[nH]c1=O | PBL | CD 451 |  | 0.18 µM
S=C(NCCc1ccccn1)Nc1ccc(Br)cn1 | PBMC | NRTI resistant (RT L74V M41L V106A T215Y) MDR | RT-L74V M41L V106A T215Y | 0.02 µM
CC(C)(C)C(=O)c1sc(C(=O)NCc2ccccc2)c(O)c1O | PBMC | ZA97005 X4 CLADE C |  | 0.8 µM
S=C(NCCc1cccs1)Nc1ccc(Br)cn1 | PBMC | NRTI resistant (RT L74V M41L V106A T215Y) MDR | RT-L74V M41L V106A T215Y | 0.004 µM
Nc1ccn([C@H]2CC[C@@H](CO)O2)c(=O)n1 | PBMC | HXB2 |  | 0.01 µM
Nc1ccn([C@H]2CC[C@@H](CO)O2)c(=O)n1 | MT-2 | LAI | RT-K65R | 6.6 µM
Cc1cn([C@H]2C[C@H](N=[N+]=[N-])[C@@H](CO)O2)c(=O)[nH]c1=O | MT-4 | IIIB |  | 0.000542 µM
C[C@H]1CN2CCC[C@H]3CCCCC[C@@H]4C(=O)[C@@H](C)CN5CCC[C@@H](CCCCC[C@H](C1=O)[C@@H]32)[C@H]45 | MT-2 | MN |  | 41.3 µM
Nc1ccn([C@H]2CC[C@@H](CO)O2)c(=O)n1 | MT-4 | HXB2-D184 (RT-M184V) | RT-M184V | 2.2 µM
CC(C)[C@H](NC(=O)c1ccc2ccccc2n1)C(=O)N[C@@H](Cc1ccccc1)[C@H](O)CN1CC[C@@H](SCc2cccnc2)C[C@H]1C(=O)NC(C)(C)C | C8166 | IIIB |  | 0.001 µM
COC(=O)[C@@H](NC(=O)[C@@H](NC(=O)CC[C@H](O)[C@H](Cc1ccccc1)NC(=O)[C@H](C)NC(=O)[C@H](C)NC(=O)OCc1ccccc1)C(C)C)C(C)C | MOLT-4 | IIIB |  | <4.2 µM
COP(=S)(OC[C@@H]1CC[C@H](n2cnc3c(N)ncnc32)O1)C(=O)O |  |  |  | 1–10 µM
CC(C)(C)NC(=O)[C@@H]1CN(Cc2cccnc2)CCN1C[C@@H](O)C[C@@H](Cc1ccccc1)C(=O)N[C@H]1c2ccccc2C[C@H]1O | PBMC | PI-resistant | PR-M46I L63P V82T I84V | 0.1019 µM
CC(C)(C)C(=O)c1sc(C(=O)NCCc2ccccc2)c(O)c1O | MM + M/M | BAL R5 |  | 0.2 µM
Nc1nc2c(ncn2[C@H]2CO[C@@H](CO)O2)c(=O)[nH]1 | MT-2 | LAI | RT-D67N K70R T215Y K219Q K65R | 1.4 µM
Cc1c(O)c(=O)ccn1C | PBL | BaL |  | <100 µM
Cc1cc(O)c(C)c(C(=O)N[C@@H](Cc2ccc3ccccc3c2)[C@H](O)C(=O)N2C[C@@H](Cl)C[C@H]2C(=O)NC(C)(C)C)c1 | CEM | IIIB |  | <0.027 µM
NC(=O)C(c1ccccc1)(c1ccccc1)[C@H]1CCCN(CCc2ccc3c(c2)CCO3)C1 | PM1 | NL4-3 |  | 2.6 µM
Cc1cn([C@H]2C[C@H](N=[N+]=[N-])[C@@H](CO)O2)c(=O)[nH]c1=O |  | CC7 Clinical isolates |  | 0.01 µM
Nc1ncnc2c1ncn2CCOCP(=O)(O)O | C8166 | RF |  | 1.5 µM
CCc1cc(CCc2nc3c(Cl)ccc(Cl)c3o2)c(=S)[nH]c1C | H9 | IIIB |  | <0.1 µM
Cc1cn([C@H]2C[C@H](N=[N+]=[N-])[C@@H](CO)O2)c(=O)[nH]c1=O | MT-2 | LAI | RT-D67N K70R T215Y K219Q L74V | 0.019 µM
COc1cc(C[C@H](C)[C@H](C)Cc2ccc(O)c(O)c2)ccc1O | PBMC | VS |  | ~10 µg/mL
COC(=O)P(=S)(OC)OC[C@@H]1CC[C@H](n2cnc3c(N)ncnc32)O1 |  |  |  | 0.09–23 µM
Nc1ccn(C[C@@H](CO)OCP(=O)(O)O)c(=O)n1 | CD4+HELA + HeLa | IIIB |  | 3 µM
Cc1c(O)cccc1C(=O)N[C@@H](Cc1ccccc1)[C@H](O)C(=O)N1C[C@@H](Cl)C[C@H]1C(=O)NC(C)(C)C | CEM | IIIB |  | <0.11 µM
Cc1cn([C@H]2C[C@H](N=[N+]=[N-])[C@@H](CO)O2)c(=O)[nH]c1=O | PBMC | HXB2 |  | 0.013 µM
Cc1cccc(C)c1OCC(=O)N[C@@H](Cc1ccccc1)[C@@H](O)C[C@H](Cc1ccccc1)NC(=O)[C@H](C(C)C)N1CCCNC1=O | PBMC | HXB2 | PR-L10R M46I L63P V82T I84V | <0.33 µM
C=C(/C=C/P(=O)(O)O)CCn1cnc2c(=O)[nH]c(N)nc21 | C8166 | RF |  | 8 µM
CC(C)[C@H](NC(=O)c1ccc2ccccc2n1)C(=O)N[C@@H](Cc1ccccc1)[C@H](O)CN1CC[C@@H](SCc2cccnc2)C[C@H]1C(=O)NC(C)(C)C | C8166 | IIIB |  | 0.001 µM
CC(=O)N(O)CCCCCNC(=O)CCC(=O)N(O)CCCCCNC(=O)CCC(=O)N(O)CCCCCN | PBL | BaL |  | 8.5 µM
CC(C)CN(C[C@@H](O)[C@H](Cc1ccccc1)NC(=O)O[C@H]1CCOC1)S(=O)(=O)c1ccc(N)cc1 | MT-4 | NL4-3 | PR-D30N N88D | <0.04 µM
O=c1[nH]cnc2c1ncn2[C@H]1CC[C@@H](CO)O1 | PBMC | Isolate 8093 |  | 0.62 µM
Cc1ccc(NC(=O)Nc2ccc(-c3ccc(NC(=O)Nc4ccc(-c5ccc(NC(=O)Nc6ccc(-c7ccc(NC(=O)Nc8ccc(C)cc8)cc7S(=O)(=O)O)c(S(=O)(=O)O)c6)cc5S(=O)(=O)O)c(S(=O)(=O)O)c4)cc3S(=O)(=O)O)c(S(=O)(=O)O)c2)cc1 | MT-4 | RF |  | >15 µM
Cc1cn([C@H]2C[C@H](N=[N+]=[N-])[C@@H](CO)O2)c(=O)[nH]c1=O | C8166 | BILA2185-resistant (PR I84V) |  | 0.012 µM
Cc1cn([C@H]2C[C@H](N=[N+]=[N-])[C@@H](CO)O2)c(=O)[nH]c1=O | PBMC |  |  | 0.006 µM
Cc1c(N)nc([C@H](CC(N)=O)NC[C@H](N)C(N)=O)nc1C(=O)N[C@H](C(=O)N[C@H](C)[C@@H](O)[C@H](C)C(=O)N[C@H](C(=O)NCCc1nc(-c2nc(C(=O)NCCC[S+](C)C)cs2)cs1)[C@@H](C)O)C(O[C@@H]1O[C@@H](CO)[C@@H](O)[C@H](O)[C@@H]1O[C@H]1O[C@H](CO)[C@@H](O)[C@H](OC(N)=O)[C@@H]1O)c1cnc[nH]1 | PBMC | Recombinant 3TC/AZT-resistant | RT-M41L M184V T215Y | 0.28 µM
S=C(NCCc1cccs1)Nc1ccc(Br)cn1 | PBMC | G780-1 Clinical isolate NRTI-resistant | RT-M41L D67N K70R T215F K219Q | 0.0029 µM
CN[C@@H]1[C@H](O[C@@H]2OC[C@@H](O)[C@H](O)[C@H]2O)[C@@H](O)[C@H](O[C@H]2c3cc(C)c(C(=O)N[C@H](C)C(=O)O)c(O)c3-c3c(cc4c(c3O)C(=O)c3cc(OC)cc(O)c3C4=O)[C@@H]2O)O[C@@H]1C | PBMC | BAL R5 |  | 2.2 µg/mL
C[C@@H]1CN2CCC[C@@H]3CCCCC[C@@H]4C(=O)[C@@H](C)CN5CCC[C@@H](CCCCC[C@@H](C1=O)[C@H]32)[C@H]45 | MT-2 | MN |  | 52.98 µM
CCc1cc(CCc2nc3ccccc3o2)c(=S)[nH]c1C | H9 | IIIB |  | <0.1 µM
Cc1c(O)cccc1C(=O)N[C@@H](CCc1ccccc1)[C@H](O)C(=O)N1C[C@@H](Cl)C[C@H]1C(=O)NC(C)(C)C | CEM | IIIB |  | <0.73 µM
CCO/N=C(\c1ccc(Br)cc1)C1CCN(C2(C)CCN(C(=O)c3c(C)cc[n+]([O-])c3C)CC2)CC1 | PBMC | BAL R5 |  | 0.003 µM
Cc1cc(O)c(C)c(C(=O)N[C@@H](Cc2ccccc2)[C@H](O)C(=O)N2C[C@@H](Cl)C[C@H]2C(=O)NC(C)(C)C)c1 | CEM | IIIB |  | <0.115 µM
CCCCN1C(=O)[C@@H]([C@H](O)C2CCCCC2)NC(=O)C12CCN(Cc1ccc(Oc3ccc(C(=O)O)cc3)cc1)CC2 | PBMC | JR-FL R5 |  | 0.0002 µM
O=c1[nH]cnc2c1ncn2[C@H]1CC[C@@H](CO)O1 | PBMC | 7898 CLADE B CLADE B |  | 0.369 µM
Cc1ncc(COP(=O)(O)O)c(C=O)c1O | MT-2 | IIIB |  | >100 µg/mL

A second listing of 6 rows from above:

compound,cells,strain or isolate,changes,value
Cc1cn([C@H]2C[C@H](N=[N+]=[N-])[C@@H](CO)O2)c(=O)[nH]c1=O,,CC7 Clinical isolates,,0.01 µM
CC(C)[C@H](NC(=O)c1ccc2ccccc2n1)C(=O)N[C@@H](Cc1ccccc1)[C@H](O)CN1CC[C@@H](SCc2cccnc2)C[C@H]1C(=O)NC(C)(C)C,C8166,IIIB,,0.001 µM
S=C(NCCc1ccccn1)Nc1ccc(Br)cn1,PBMC,NRTI resistant (RT L74V M41L V106A T215Y) MDR,RT-L74V M41L V106A T215Y,0.02 µM
COc1cc(C[C@H](C)[C@H](C)Cc2ccc(O)c(O)c2)ccc1O,PBMC,VS,,~10 µg/mL
Cc1ncc(COP(=O)(O)O)c(C=O)c1O,MT-2,IIIB,,>100 µg/mL
Nc1ccn([C@H]2CC[C@@H](CO)O2)c(=O)n1,PBMC,HXB2,,0.01 µM